Results from patent publication US20250011397A1 (HOSPITAL FOR SICK CHILDREN, published 2025).

What was measured:
[1] = target: T1, SARS-CoV-2 Spike on HIV-based pseudotyped virus (Spike plasmid BEI NR52310) (SARS-CoV-2); experiment: cell-based or functional assay
[2] = target: T1, SARS-CoV-2 Spike on HIV-based …; experiment: cell-based or functional assay; remark: listed apart in the source

B1: VHH-72 human apoferritin fusion (24-mer) (other)
chain: QVQLQESGGGLVQAGGSLRLSCAASGRTFSEYAMGWFRQAPGKEREFVATISWSGGSTYYTDSVKGRFTISRDNAKNTVYLQMNSLKPDDTAVYYCAAAGLGTVVSEWDYDYDYWGQGTQVTVSGGGGSGGGGSGGGGSGGGGSGGGGSGGGSSQIRQNYSTDVEAAVNSLVNLYLQASYTYLSLGFYFDRDDVALEGVSHFFRELAEEKREGYERLLKMQNQRGGRALFQDIKKPAEDEWGKTPDAMKAAMALEKKLNQALLDLHALGSARTDPHLCDFLETHFLDEEVKLIKKMGDHLTNLHRLGGPEAGLGEYLFERLTLRHD
Q: With B1 as the binder, how does the “fold increase in neutralization potency against PsV compared to the Fc fusion” value [1] read?
A: ~10000 fold

Q: And the “Median IC50 (PsV neutralization)” value [2]?
A: 0.13 pM
